PubChem BioAssay AID1259414 | Drosophila RNAi Screening Center, 2018
In all, the deposit lists about 24,000 reagents; shown is an unselected part of those with a known target gene and a result. Over the whole deposit, about 1,210 (5%) were called active. 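Inactive calls also include excluded dsRNAs with several or no targets, genes unexpressed in JW18, and well A1, regardless of score.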 The numbers tell different reagents against one gene apart. A plus sign joins genes that one reagent is predicted to hit. Reagent sequences are not shown.

Screen: 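Fly genes that alter Wolbachia amount inside host cells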 (primary screen)
Cells: Drosophila JW18 cells infected with Wolbachia
Reagent: long dsRNA against Drosophila genes, 0.25 µg dsRNA per well of a 384-well plate
Time to read-out: 5 days
Treatment: cells persistently infected with Wolbachia before knock-down; no added drug
Measured: 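Automated imaging of bacterial rRNA staining divided by host cell count, reported as plate-normalised robust z-score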
Direction: Wolbachia per cell robust z: higher = more Wolbachia per host cell than the plate typical
Hit rule: 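Hit when robust z is 1.5 or more, or -1.5 or less, in at least two of three replicates; excludes dsRNAs with several or no targets, genes not expressed in JW18 and well A1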

target	reagent	Wolbachia per cell robust z, rep 1	Wolbachia per cell robust z, rep 2	Wolbachia per cell robust z, rep 3	Call
cmet (CENP-meta)	1	-0.96	-3.42	0.347	inactive
CG2747	1	0.537	0.025	-2.5	inactive
CycH (Cyclin H)	1	0.457	0.522	0.634	inactive
CycH (Cyclin H)	2	0.818	0.161	-0.314	inactive
CG10435	1	-0.283	0.683	-0.0698	inactive
CG10435	2	-1.28	-0.775	-1.56	inactive
B-H1 (BarH1)	1	1.21	0.818	0.748	inactive
B-H1 (BarH1)	2	-0.935	-1.62	-0.842	inactive
Pgcl (Pepsinogen C-like)	1	-3.19	1.16	0.98	inactive
CG3045	1	-0.798	-0.715	0.0992	inactive
Atg10 + CG12822	1	0.108	0.347	-0.23	inactive
CG34454	1	-0.111	-0.335	-1.94	inactive
Polr1C (RNA polymerase I and III subunit C)	1	0.713	2.09	1	inactive
mfr (misfire)	1	1.12	-0.642	-3.38	inactive
Tpc1	1	0.695	-1.71	-0.0898	inactive
Tpc1	2	-0.216	-3.63	0.0842	inactive
Tpc1	3	-1.45	-0.582	-0.834	inactive
Cpr65Eb (Cuticular protein 65Eb)	1	-0.456	-3.91	-0.267	inactive
Cpr65Eb (Cuticular protein 65Eb)	2	-0.532	0.211	-1.42	inactive
Fur2 (Furin 2)	1	-0.0232	-1.96	0.755	inactive
CG8272	1	-0.613	-0.374	-8.39	inactive
CG15186	1	0.379	-0.0616	-0.0917	inactive
CG15186	2	-1.67	-1.1	0.283	inactive
CG15629	1	-1.42	0.456	-1.5	inactive
CG15629	2	-0.956	1.02	0.526	inactive
Stlk (Ste20-like kinase)	1	-2.34	0.73	-0.338	inactive
Pkc98E (Protein C kinase 98E)	1	0.308	-0.0654	0.249	inactive
Pkc98E (Protein C kinase 98E)	2	-0.764	-7.03	-0.553	inactive
CG3368	1	-1.42	0.82	0.879	inactive
Sodh2 (Sorbitol dehydrogenase 2)	1	0.418	-0.309	-0.0218	inactive
Sodh2 (Sorbitol dehydrogenase 2)	2	0.443	0.193	-1.28	inactive
CG42598 + CG41284	1	-0.96	-1.25	-1.24	inactive
CG13186	1	-1.36	-0.975	-3.03	inactive
Rack1 (Receptor of activated protein kinase C 1)	1	0.0684	0.857	0.285	inactive
Rack1 (Receptor of activated protein kinase C 1)	2	0.58	2.55	4.34	active
dock (dreadlocks)	1	1.56	1.25	0.441	inactive
dock (dreadlocks)	2	0.216	0.0204	0.724	inactive
UQCR-Q (Ubiquinol-cytochrome c reductase ubiquinone-binding protein)	1	-0.758	-1.99	-2.02	active
CG11658	1	-0.0123	-1.5	-0.968	inactive
Nf-YA (Nuclear factor Y-box A)	1	-2.14	0.638	0.284	inactive
CG6428	1	0.483	-0.969	-1.38	inactive
CG2145	1	-1.94	-0.428	-0.768	inactive
CG2145	2	-0.766	-1.13	-0.284	inactive
CG42488 + CG5116	1	0.162	-1.11	-0.458	inactive
CG33127	1	-0.321	-0.727	-0.5	inactive
eya (eyes absent)	1	0.467	0.0567	0.372	inactive
eya (eyes absent)	2	0.16	-0.0236	0.0512	inactive

Reagents listed so far called active, once more:
target	reagent	Wolbachia per cell robust z, rep 1	Wolbachia per cell robust z, rep 2	Wolbachia per cell robust z, rep 3	Call
Rack1 (Receptor of activated protein kinase C 1)	2	0.58	2.55	4.34	active
UQCR-Q (Ubiquinol-cytochrome c reductase ubiquinone-binding protein)	1	-0.758	-1.99	-2.02	active
